## Screening data, single-dose tests

The values are deposited in ChEMBL (CHEMBL3988442, “University of Dundee, Small-Polar-MMV Screening Library” (2021)).

Mtb glucose medium: 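Growth of Mycobacterium tuberculosis over 3 days (7H9 medium with glucose and tyloxapol); the read-out is not stated. Concentration: 500 µM. Direction is inferred from retests: higher values go with more growth inhibition. Size under these conditions: about 18,000 compounds, about 1,400 of them at 50% or above in at least one test.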
Mtb cholesterol medium: 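Whole-cell growth test on Mycobacterium tuberculosis, read after 4 days in a medium based on cholesterol and the lipid DPPC; the read-out is not stated. Compounds at 500 µM. Direction is inferred from retests: higher values go with more growth inhibition. Size under these conditions: about 18,000 compounds, about 900 of them at 50% or above in at least one test.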

The filed quantity is “Percent Effect” (%).
The controls that fix the scale are not given in the record; negative values are as filed.
Many other results are left out here, so strong results are more common than in the screen.

With CO[C@H]1CNCC1NC(=O)c1cc2ccccc2n1C (stereo partly shown) the screen gave Mtb glucose medium: 58.05%. For COC(=O)NC(C)C(=O)NCC1(Cn2ccnc2)CC1 (stereo not shown) the result was Mtb cholesterol medium: 5.783%. Result for c1ccc2ncc(N3CCNCC3)cc2c1 was Mtb glucose medium: 35.08%. Result for COCCNCc1ccc(OC)c(OC)c1OC was Mtb cholesterol medium: -5.017%. Result for O=C1CNCCN1c1cccc2cnccc12 was Mtb cholesterol medium: -8.719%. Result for O=C(c1ccccc1)N1CC[C@H](CO)[C@@H](O)C1 was Mtb glucose medium: 11.15%. CS(=O)(=O)Nc1cccc(C(=O)NCc2ccco2)c1 gave Mtb glucose medium: 29.71%. CCOc1ccc(C(=O)n2cnnc2N)cc1 gave Mtb cholesterol medium: 9.363%.

CC(C)c1cc(C(=O)N2CC(c3ccccn3)C2)no1 gave Mtb glucose medium: 74.92%; Mtb cholesterol medium: 69.87%. Result for COCCCOC1CN(C(=O)c2cccnc2)C1 was Mtb glucose medium: 37.64%; Mtb cholesterol medium: 17.15%. Result for CC(=O)Nc1ccnn1Cc1ccccc1F was Mtb glucose medium: -1.572%. Result for Cc1noc(-c2ccc(C(N)=O)cc2)n1 was Mtb glucose medium: -3.39%. For CC(C)N(CCCNC(=O)c1ccoc1)S(C)(=O)=O the result was Mtb glucose medium: 20.22%. Result for OC1CCN(c2ccccn2)CC1 was Mtb glucose medium: -2.135%; Mtb cholesterol medium: 0.5004%. CN(Cc1ccco1)C(=O)CN1CCc2sccc2C1 gave Mtb glucose medium: 62.98%; Mtb cholesterol medium: 69.22%. For OC(CNc1ncnc2ncccc12)C1CCCC1 (stereo not shown) the result was Mtb glucose medium: 28.07%.

Cc1nonc1CC(=O)N1CC[C@H]2CNC[C@H]21 gave Mtb glucose medium: 9.538%. O=C(NCCCn1cccn1)c1ccccc1O read Mtb glucose medium: 47.96%. With Cn1ccnc1C1CCN(C(=O)NC(C)(C)C)CC1 the screen gave Mtb glucose medium: -4.989%. For Cn1ccnc(Cl)c1=O the result was Mtb glucose medium: -1.29%. Result for CCNC(=O)C1CC(=O)N(C2CCCCC2)C1 (stereo not shown) was Mtb glucose medium: 7.779%. For CC(C)[C@H]1CN(S(=O)(=O)c2ccccc2F)C[C@@H]1N the result was Mtb cholesterol medium: 26.97%. For Cn1ccnc1CN1CCC2(CC(=O)NC2=O)C1 (stereo not shown) the result was Mtb glucose medium: 6.699%. For Cc1cccc(C)c1NC(=O)CN1CCN(C)CC1 the result was Mtb glucose medium: -16.36%.

Cn1ccc(NC(=O)c2ccnn2C)n1 read Mtb cholesterol medium: 23.26%. With CS(=O)(=O)Nc1ccc(OCCN)cc1 the screen gave Mtb glucose medium: 0.8351%. With CC(C)SCC(=O)N(C)C(C)c1ccncc1 (stereo not shown) the screen gave Mtb cholesterol medium: 17.4%. CC(=O)NC1CCN(C(=O)CSC(C)(C)C)CC1 gave Mtb cholesterol medium: 6.75%. CN(Cc1cc(C2CC2)[nH]n1)C(=O)c1c[nH]c(=O)[nH]1 read Mtb glucose medium: 12.05%; Mtb cholesterol medium: 0.1549%. For NCC(CO)Cc1ccc(Br)cc1 (stereo not shown) the result was Mtb glucose medium: 49.76%; Mtb cholesterol medium: 21.61%. Result for CCOC(=O)CN(c1cccc(F)c1)S(C)(=O)=O was Mtb glucose medium: 27.67%. Nc1nc(-c2c(F)cccc2F)co1 gave Mtb glucose medium: 77.72%.

For O=C(c1cnsn1)N1CCN(c2ccccn2)CC1 the result was Mtb glucose medium: 70.39%; Mtb cholesterol medium: 59.63%. For CC(Cc1ccco1)NC(=O)Cn1cc(Br)ccc1=O (stereo not shown) the result was Mtb glucose medium: 26.11%. With COCCN(C)CCNC(=O)c1cccc(Cl)c1 the screen gave Mtb glucose medium: 11.59%; Mtb cholesterol medium: 10.91%. OCc1cnn(CC(F)(F)F)c1 read Mtb glucose medium: 7.627%. For Cc1ccc(C(C)NC(=O)NCCN2CCOCC2)o1 (stereo not shown) the result was Mtb glucose medium: 11.27%. For CN1CCC(N(C)C(=O)CCN)CC1 the result was Mtb cholesterol medium: 6.2%. Result for Cc1noc(C2COCCN2Cc2cncs2)n1 (stereo not shown) was Mtb cholesterol medium: 1.193%. C[C@@H](N)C(=O)N1CCC(OCCCc2ccccc2)C1 (stereo partly shown) read Mtb glucose medium: 43.84%; Mtb cholesterol medium: 44.18%.

N#CCCN1CCN(C(=O)c2ccc(Cl)cc2F)CC1 read Mtb glucose medium: 43.31%. CCOCC(=O)Nc1cc(C(=O)NC)ccc1C gave Mtb cholesterol medium: 5.378%. For COc1cc2c(nn1)CCNC2 the result was Mtb glucose medium: -54.43%. O=C1[C@H]2CNC[C@H]2C(=O)N1Cc1ccccc1 gave Mtb glucose medium: 8.401%; Mtb cholesterol medium: -3.353%. CNC(=O)CCCNCc1c(C)nn(C)c1OC gave Mtb glucose medium: 4.769%. With COc1cccc(N2CCC(N)C2)c1 (stereo not shown) the screen gave Mtb glucose medium: 75.25%; Mtb cholesterol medium: 66.9%. With Cc1cnc(N2CCNCC2)s1 the screen gave Mtb glucose medium: 16.93%; Mtb cholesterol medium: 0.8037%. For N[C@H]1CC[C@@H](C(F)(F)F)C1 the result was Mtb glucose medium: 13.88%.

The first 4 entries again:

For CO[C@H]1CNCC1NC(=O)c1cc2ccccc2n1C (stereo partly shown) the result was Mtb glucose medium: 58.05%.
For COC(=O)NC(C)C(=O)NCC1(Cn2ccnc2)CC1 (stereo not shown) the result was Mtb cholesterol medium: 5.783%.
For c1ccc2ncc(N3CCNCC3)cc2c1 the result was Mtb glucose medium: 35.08%.
For COCCNCc1ccc(OC)c(OC)c1OC the result was Mtb cholesterol medium: -5.017%.